Tested on: mouse-adapted DENV-2 strain D2S10
Settings: 75 mg/Kg/day

COc1ccc2[nH]cc(CCNC(C)=O)c2c1 [Melatonin, N-acetyl-5-methoxytryptamine]
protection effects versus Dengue virus induced condition: Partial beneficial effects
